What was measured:
[1] = tested on: HIV-1 RoJo; assay: PBMC assay, HIV-1 RoJo replication (RT activity); conditions: PBMCs, Example 6
Source text: Human peripheral blood mononuclear cells from a minimum of two donors, that have been blasted with PHA and IL-2, were counted, viability determined by Trypan Blue dye exclusion and mixed in equal ratios. Pooled donors were used to minimize the variability observed between individual donors which results from quantitative and qualitative differences in HIV infection and overall response to the PHA and IL-2 of primary lymphocyte populations. […] Fifty microliters of cells were then distributed to the inner 60 wells of a 96 well round bottom microtiter culture plate in a standard format developed by the Infectious Disease Research department of Southern Research Institute. Each plate contains cell control wells (cells only), virus control wells (cells plus virus), and experimental wells (drug plus cells plus virus). Serially diluted compounds were added to the microtiter plate followed by the appropriate pretitered dilution of HIV-1 RoJo. […] The assay was incubated for 6 days in a humidified atmosphere at 37° C., 5% CO2, after which supernatants were collected, for analysis of RT activity and sister plates analyzed for cell viability by MTS dye reduction. […]
Reverse transcriptase (RT) activity was measured in cell-free supernatants. […]
The IC50 and TC50 values were calculated by linear regression. […]

[2] = tested on: human peripheral blood mononuclear cells (PBMCs); assay type: cell-based
Procedure: The final volume per well was 200 μL. […] Wells were also examined microscopically and any abnormalities noted.
At assay termination the assay plates were stained with the soluble tetrazolium-based dye MTS (CellTiter96® Reagent Promega) to determine cell viability and quantify compound toxicity. […] At termination of the assay 20 μL of MTS reagent was added per well and incubated for 4 h at 37° C. Adhesive plate sealers were used in place of the lids, the sealed plate was inverted several times to mix the soluble formazan product and the plate was read spectrophotometrically at 490 nm with a Molecular Devices Vmax plate reader.

Substance	TI (TC50/IC50) [1]	TC50 [2]
sulfated dextran, 12.2% sulfur, molecular weight 36,000 [DES 12.5% Sulfation]	>317	100 µg/mL
sulfated dextran, 9.5% sulfur, molecular weight 30,000 [DES 9.5% Sulfation]	>26	100 µg/mL
